A mixed list of measured activities; the numbers were collected in NIAID ChemDB.

Shared fields: toxicity to cultured cells; endpoint: CC50

CCn is the concentration with n% toxicity to the cells. Neighbouring rows are from separate reports. An empty or dashed field is not shown.

{"compound": "NC1=Nc2ccc(Cl)cc2C1(O)c1ccccc1", "cells": "Erythrocyte", "result": ">155 µM"}
{"compound": "C=CCSc1n[nH]c(-c2ccc([N+](=O)[O-])c(C(F)(F)F)c2)n1", "cells": "THP-1", "read by": "MTT", "result": ">100 µg/mL"}
{"compound": "Cc1cc2ccccc2nc1Nc1ccc(OC(F)(F)F)cc1", "cells": "PBMCs", "result": "0.001 µM"}
{"compound": "C=C1CN(S(=O)(=O)c2ccc(C)cc2)CCCN(CC2CC=CCC2)CCCN(S(=O)(=O)c2ccc(C)cc2)C1", "cells": "SupT1", "read by": "trypan blue / propidium iodide", "result": "40.4 µM"}
{"compound": "C=Cc1cn([C@@H]2O[C@H](CO)[C@@H](O)[C@@H]2F)c(=O)[nH]c1=O", "cells": "Human lymphoblasts", "result": "100 µM"}
{"compound": "CCC(C)Sc1n[nH]c(-c2ccc(C)cc2)n1", "cells": "Panc-1", "read by": "MTT", "result": ">100 µg/mL"}
{"compound": "CCCCC(C)(C)[C@H](O)/C=C/[C@H]1C=CC(=O)[C@@H]1CCCCCCC(=O)O", "cells": "VB", "read by": "cell count", "result": ">8 µg/mL"}
{"compound": "N#Cc1cc(Cl)cc(Oc2cc(OCC(=O)Nc3ccc(S(N)(=O)=O)cc3Cl)ccc2Cl)c1", "cells": "MT-4", "read by": "microscopy", "result": ">20 µM"}
{"compound": "CCOC(OCC)C(=O)NCCc1ccc(OC)c(OC)c1", "cells": "RAJI", "result": "<7.5 µM"}
{"compound": "CCCCCCCCCCCCOS(=O)(=O)O", "cells": "1G5", "result": "829.2 µM"}
{"compound": "Cn1c2ccccc2c(=O)c2c(O)cccc21", "cells": "OM-10.1", "result": "18 µg/mL"}
{"compound": "Oc1ccc(-c2nc(SCC3CC3)n[nH]2)cc1", "cells": "Panc-1", "read by": "MTT", "result": ">100 µg/mL"}
{"compound": "Nc1ncnc2c1ncn2[C@H]1C[C@@]12C[C@@H]2CO", "cells": "BSC-1", "result": ">100 µM"}
{"compound": "C#CCSc1n[nH]c(-c2ccc(C(F)(F)F)cc2)n1", "cells": "A549", "read by": "MTT", "result": "73.21 µg/mL"}
{"compound": "O[C@@H]1[C@@H](O)[C@H](Oc2ccccc2)O[C@H](CCl)[C@H]1O", "cells": "LLC-MK2", "result": "580 µM"}
{"compound": "Clc1ccc2c(NCCCNc3nccc(N4CCCCC4)n3)ccnc2c1", "cells": "CRFK cells", "read by": "MTS / tetrazolium / absorbance", "result": "9.8 µM"}
{"compound": "Cn1c2ccccc2c(=O)c2c(O)ccc(O)c21", "cells": "OM-10.1", "result": "0.36 µg/mL"}
{"compound": "COc1cnc(OC)c(C2(O)C(N)=Nc3ccc(Cl)cc32)c1", "cells": "Dermal fibroblast", "result": ">195 µM"}
{"compound": "Cn1c2c3ccccc3nc-2cc2ccccc21", "cells": "Macrophage", "read by": "MTT", "result": "17 µM"}
{"compound": "C=C1CN(S(=O)(=O)c2ccc(C)cc2)CCCN(C(=O)OCCC)CCCN(S(=O)(=O)c2ccc(C)cc2)C1", "cells": "SupT1", "read by": "trypan blue / propidium iodide", "result": "40.4 µM"}
{"compound": "O=C(Cc1cccs1)Nc1ccc(C(=O)/C=C/c2ccc(O)c(O)c2)cc1", "cells": "CEM-GFP", "result": "44.6 µM"}
{"compound": "CC[C@H](C)/C=C(C)/C=C/C(=O)CC1=C(C=O)C(O)C(C)C(O)C1", "cells": "J774", "read by": "visual reading", "result": "200 µg/mL"}
{"compound": "N#Cc1cc(Cl)cc(Oc2cc(Cl)cc(OCC(=O)Nc3ccc(C#N)cc3Cl)c2)c1", "cells": "MT-4", "read by": "microscopy", "result": ">20 µM"}
{"compound": "OC[C@H]1O[C@H](Oc2ccc(Cl)cc2)C[C@@H](O)[C@@H]1O", "cells": "LLC-MK2", "result": "240 µM"}
{"compound": "Nc1ncnc2c1ncn2[C@H]1C[C@]12C[C@H]2CO", "cells": "BSC-1", "result": ">100 µM"}
{"compound": "O=[N+]([O-])c1ccc(-c2nc(=S)[nH][nH]2)cc1C(F)(F)F", "cells": "THP-1", "read by": "MTT", "result": "57.4 µg/mL"}
{"compound": "Cc1ccc(S(=O)(=O)N2CCCN(Cc3ccccc3)CCCN(S(=O)(=O)c3ccc(C)cc3)CCC2)cc1", "cells": "SupT1", "read by": "trypan blue / propidium iodide", "result": ">75 µM"}
{"compound": "COc1ccc(CC2C3=C(CCCC3)CCN2c2c(F)c([N+](=O)[O-])c3c(=O)c(C(=O)O)cn(C4CC4)c3c2OC)cc1", "cells": "Vero mammalian cells", "read by": "MTT", "result": "108 µM"}
{"compound": "COc1cc2nc(N3CCCN(C)CC3)nc(NC3CCN(Cc4ccccc4)CC3)c2cc1OC", "cells": "MEF", "read by": "fluorescence", "result": "11 µM"}
{"compound": "COc1ccc(O)c2c(=O)c3ccccc3n(C)c12", "cells": "OM-10.1", "result": "16 µg/mL"}
{"compound": "O[C@@H]1[C@@H](O)[C@H](Oc2ccc(Cl)cc2)O[C@H](CCl)[C@H]1O", "cells": "LLC-MK2", "result": "150 µM"}
{"compound": "CCOC(=O)CCCCCOc1cccc(CN(C(=O)c2ccc(-c3cnc(OC)nc3OC)cc2)C(C)C)c1", "cells": "BJ", "result": ">20 µM"}
{"compound": "CCc1cn([C@@H]2O[C@H](CO)[C@@H](O)[C@@H]2F)c(=O)[nH]c1=O", "cells": "Human lymphoblasts", "result": "100 µM"}
{"compound": "Cc1ccc(NC(=O)NCCSCc2ccc(CNC(C)C)o2)cc1Cl", "cells": "U1", "result": ">100 µM"}
{"compound": "COc1c(N2CC(C)OC(C)C2)c(F)c([N+](=O)[O-])c2c(=O)c(C(=O)O)cn(C3CC3)c12", "cells": "Vero mammalian cells", "read by": "MTT", "result": "144 µM"}
{"compound": "C=C1CN(S(=O)(=O)c2ccc(C)cc2)CCCN(CC2CCCCC2)CCCN(S(=O)(=O)c2ccc(C)cc2)C1", "cells": "SupT1", "read by": "trypan blue / propidium iodide", "result": "37.9 µM"}
{"compound": "CCOC(=O)CCCCCOc1cccc(CN(C(=O)c2ccc(-c3cccnc3)cc2)C(C)C)c1", "cells": "BJ", "result": ">20 µM"}
{"compound": "OC[C@H]1O[C@H](Oc2ccccc2)C[C@@H](O)[C@@H]1O", "cells": "LLC-MK2", "result": ">1000 µM"}
{"compound": "COc1c(N2CCN(C)C(c3ccccc3)C2)c(F)c([N+](=O)[O-])c2c(=O)c(C(=O)O)cn(C3CC3)c12", "cells": "Vero mammalian cell line", "read by": "MTT", "result": "126 µM"}
{"compound": "NC1=Nc2ccc(Cl)cc2C1(O)Cc1ccccc1", "cells": "Erythrocyte", "result": ">147 µM"}
{"compound": "COc1c(N2CCn3cc(C(=O)O)nc3C2)c(F)cc2c(=O)c(C(=O)O)cn(C3CC3)c12", "cells": "Vero mammalian cells", "read by": "MTT", "result": "141 µM"}
{"compound": "N#Cc1cc(Cl)cc(Oc2cc(CCc3[nH]nc4ncccc34)ccc2Cl)c1", "cells": "MT-4", "read by": "microscopy", "result": ">20 µM"}
{"compound": "CCCN(Cc1ccc(OCC(=O)OCC)cc1)C(=O)c1ccc(-c2ccc3c(c2)OCO3)cc1", "cells": "RAJI", "result": ">20 µM"}
{"compound": "C=C1CN(S(=O)(=O)c2ccc(C)cc2)CCCN(C(C)CC)CCCN(S(=O)(=O)c2ccc(C)cc2)C1", "cells": "SupT1", "read by": "trypan blue / propidium iodide", "result": "43.1 µM"}
{"compound": "COc1ccc2c(c1OC)c(=O)c1ccccc1n2C", "cells": "OM-10.1", "result": "28 µg/mL"}
{"compound": "Nc1ncnc2c1ncn2[C@H]1C[C@@]12C[C@H]2CO", "cells": "BSC-1", "result": ">100 µM"}
{"compound": "COc1c(N2CCn3cc(C(=O)O)nc3C2)c(F)c([N+](=O)[O-])c2c(=O)c(C(=O)O)cn(C3CC3)c12", "cells": "Vero mammalian cells", "read by": "MTT", "result": "128 µM"}
{"compound": "C=C1CN(S(=O)(=O)c2ccc(C)cc2)CCCN(C(=O)OCC)CCCN(S(=O)(=O)c2ccc(C)cc2)C1", "cells": "SupT1", "read by": "trypan blue / propidium iodide", "result": ">75 µM"}
{"compound": "FC(F)(F)c1ccc(-c2nc(=S)[nH][nH]2)cc1", "cells": "Panc-1", "read by": "MTT", "result": ">100 µg/mL"}
{"compound": "C=C1CN(S(=O)(=O)c2ccc(C)cc2)CCCN(CCC)CCCN(S(=O)(=O)c2ccc(C)cc2)C1", "cells": "SupT1", "read by": "trypan blue / propidium iodide", "result": ">75 µM"}
{"compound": "N#Cc1cc(Cl)cc(Oc2cc(Cl)cc(OCc3nc4ccccc4s3)c2)c1", "cells": "MT-4", "read by": "microscopy", "result": ">20 µM"}
{"compound": "O=c1[nH]c(=O)n([C@@H]2O[C@H](CO)[C@@H](O)[C@@H]2F)cc1/C=C/Cl", "cells": "Human lymphoblasts", "result": "100 µM"}
{"compound": "COc1c(N2COCC2(C)C)c(F)c([N+](=O)[O-])c2c(=O)c(C(=O)O)cn(C3CC3)c12", "cells": "Vero mammalian cells", "read by": "MTT", "result": "148 µM"}
{"compound": "C=C1CN(S(=O)(=O)c2ccc(C)cc2)CCCN(C(C)=O)CCCN(S(=O)(=O)c2ccc(C)cc2)C1", "cells": "SupT1", "read by": "trypan blue / propidium iodide", "result": ">75 µM"}
{"compound": "Nc1nc2c(ncn2[C@H]2C[C@]23C[C@H]3CO)c(=O)[nH]1", "cells": "BSC-1", "result": ">100 µM"}
{"compound": "COc1cc([C@@H]2c3cc4c(cc3[C@@H](O[C@@H]3O[C@@H]5CO[C@@H](C)O[C@H]5[C@H](O)[C@H]3O)[C@H]3COC(=O)[C@H]23)OCO4)cc(OC)c1O", "cells": "DLD-1", "read by": "resazurin", "result": "2.5 µg/mL"}
{"compound": "Nc1ncnc2c1ncn2[C@H]1C[C@]12C[C@@H]2CO", "cells": "BSC-1", "result": ">100 µM"}
{"compound": "FC(F)(F)c1cccc(-c2nc(=S)[nH][nH]2)c1", "cells": "THP-1", "read by": "MTT", "result": ">100 µg/mL"}
{"compound": "CS(=O)(=O)N1CC(C(=O)NC2CC3(C2)CC(c2nc4cc(Cl)ccc4o2)C3)C1", "cells": "Primary human hepatocytes", "read by": "absorbance", "result": ">100 µM"}

A second listing of 6 rows from above:

compound,cells,read by,result
FC(F)(F)c1cccc(-c2nc(=S)[nH][nH]2)c1,THP-1,MTT,>100 µg/mL
Cc1ccc(NC(=O)NCCSCc2ccc(CNC(C)C)o2)cc1Cl,U1,,>100 µM
COc1ccc(CC2C3=C(CCCC3)CCN2c2c(F)c([N+](=O)[O-])c3c(=O)c(C(=O)O)cn(C4CC4)c3c2OC)cc1,Vero mammalian cells,MTT,108 µM
O[C@@H]1[C@@H](O)[C@H](Oc2ccccc2)O[C@H](CCl)[C@H]1O,LLC-MK2,,580 µM
C=C1CN(S(=O)(=O)c2ccc(C)cc2)CCCN(CCC)CCCN(S(=O)(=O)c2ccc(C)cc2)C1,SupT1,trypan blue / propidium iodide,>75 µM
N#Cc1cc(Cl)cc(Oc2cc(Cl)cc(OCC(=O)Nc3ccc(C#N)cc3Cl)c2)c1,MT-4,microscopy,>20 µM